A mixed list of measured activities; the numbers were collected in NIAID ChemDB.

All rows: tests in culture; organism: Mycobacterium tuberculosis

Percent inhibition refers to the dose given; in toxicity tests it is the harm to the cells. Blank or dashed fields: not listed here. a–b is a range or a potency band. Neighbouring rows are from separate reports. ECn: concentration that inhibits the pathogen or its effect by n%. MIC bound comes from a single tested concentration. MIC50, MIC90 and the like: level of inhibition, or share of isolates inhibited.

SMILES | cell line | endpoint | setting | strain | read by | changes | dose | result
CCCCCCCCCCCCCCCCCCNC(CCO)C1OC2OC(C)(C)OC2[C@H]1OCc1ccccc1 |  | MIC |  | H37Ra |  |  |  | 25 µg/mL
O=C1NN=C(c2ccc([N+](=O)[O-])cc2)C1n1nc(-c2ccccc2)c2ccccc2c1=O |  | inhibition |  | H37Rv | BACTEC |  | 12.5 µg/mL | 0%
CCC1CN(c2c(F)cc3c(=O)c(C(=O)O)cn(C4CC4)c3c2OC)CCN1 |  | MIC |  | 44 (RFP-resistant) |  |  |  | 0.5 µg/mL
COC(=O)c1ccc(N2CCN(C(=O)c3cccc(Cl)c3)CC2)cc1 |  | MIC50 |  | BioA overexpression strain | turbidity |  |  | >50 µM
CCN1CCc2c(sc(NC(=O)c3c(F)c(F)c(F)c(F)c3F)c2C(=O)NC)C1 |  | EC50 |  | H37Rv | turbidity | gyrA mutant (D94N) |  | 2.1 µM
CCCCCCCCCCCCCCCCNC(CCO)C1OC2OC(C)(C)OC2[C@@H]1OCc1ccccc1 |  | MIC |  | H37Rv |  |  |  | 12.5 µg/mL
CC(=O)OCCn1c2nc(=O)[nH]c(=O)c-2nc2cc(C)c(C)cc21 |  | inhibition |  | H37Rv | BACTEC |  | 6.25 µg/mL | 0%
CC1=C(C(=O)Nc2cc(C)ccc2C)C(c2cccc([N+](=O)[O-])c2)C(C(=O)Nc2cc(C)ccc2C)=C(C)N1 |  | MIC |  | H37Rv |  |  |  | >6.25 µg/mL
CO[C@H]1/C=C/O[C@@]2(C)Oc3c(C)c(O)c4c(O)c(c(/C=N/Nc5ccc([N+](=O)[O-])cc5[N+](=O)[O-])c(O)c4c3C2=O)NC(=O)/C(C)=C\C=C\[C@H](C)[C@H](O)[C@@H](C)[C@@H](O)[C@@H](C)[C@H](OC(C)=O)[C@@H]1C |  | inhibition |  | H37Rv | BACTEC |  | 12.5 µg/mL | 100%
COc1ccc(/C(C)=N/NC(=O)c2ccncc2)cc1F |  | MIC |  | 16PI |  |  |  | >20 µg/mL
Cc1ccc(-c2cc(CN3CCOCC3)c(C)n2-c2ccc(F)cc2)cc1 |  | MIC |  | H37Rv DR6 |  | V681I M492T V564A |  | 5.4 µM
O=C1CCc2cc(N3CCN(C(=O)c4ccc5c(c4)OCO5)CC3)ccc21 |  | MIC90 |  | BioA overexpression strain | turbidity |  |  | 26.8 µM
CCCCCCCCCCCCNC(CCO)C1OC2OC(C)(C)OC2[C@@H]1OC |  | MIC |  | H37Rv |  |  |  | 25 µg/mL
O=C(O)c1ccccc1SSC(=S)N1CCOCC1 |  | MIC |  | H37Rv | BACTEC |  |  | ≥128 µg/mL
O=C1OCc2cc(N3CCN(C(=O)c4cccc(Cl)c4)CC3)ccc21 |  | MIC90 |  | BioA overexpression strain | turbidity |  |  | >50 µM
CC(C)(C)C1CCc2c(sc3nc(SCC(=O)OCC4CCCCC4)nc(N)c23)C1 |  | MIC |  | H37Rv | MTT / visual reading |  |  | 0.78 µg/mL
CCN1CCc2c(sc(NC(=O)c3c(F)c(F)c(F)c(F)c3F)c2C#N)C1 |  | MIC |  | ATCC 35822 | turbidity |  |  | 20 µM
Cc1csc(CSc2nc(N)c3c4c(sc3n2)CC(C(C)(C)C)CC4)n1 |  | MIC |  | H37Rv | MTT / visual reading |  |  | 50 µg/mL
S=c1oc2ccc(Br)cc2c(=S)n1-c1ccc(Cl)c(Cl)c1 |  | MIC | 14 d | My 331/88 |  |  |  | 2 µM
CCCCN(CCCC)CCc1c[nH]c2ccccc12 |  | MIC |  | MTCS2 | resazurin |  |  | 19.53 µg/mL
Cc1cc(-c2ccccc2)oc(=O)c1NC(=O)c1cnccn1 |  | MIC bound |  | H37Rv | BACTEC |  |  | >6.25 µg/mL
O=C1NC(Nc2ccc(Cl)cc2)=N/C1=C\c1ccccc1Cl |  | MIC |  | H37Rv |  |  |  | >12.5 µg/mL
COc1ccc2oc(=O)n(-c3cccc(F)c3)c(=S)c2c1 |  | MIC | 21 d | My 331/88 |  |  |  | 32 µM
O=C1NC(NNC(=O)c2ccncc2)=N/C1=C\c1cccc(Cl)c1 | VERO | inhibition |  | H37Rv | resazurin |  | 12.5 µg/mL | 99%
Fc1ccc(-n2c(=S)oc3ccc(Cl)cc3c2=S)cc1 |  | MIC | 14 d | My 331/88 |  |  |  | 1 µM
NC1CN(c2c(F)cc3c(=O)c(C(=O)O)cn(C4CC4)c3c2Cl)CC12CC2 |  | MIC |  | 71 (RFP-resistant) |  |  |  | 0.78 µg/mL
Cc1nc(/N=C(\N)Nc2ccc(Cl)c(Cl)c2)ncc1N1CCC(N2CCCC2)CC1 |  | MIC |  | H37Rv | BACTEC |  |  | 6.25 µg/mL
COc1ccc(/C(C)=N/NC(=O)c2ccncc2)cc1OC |  | MIC |  | 16PI |  |  |  | >20 µg/mL
CCCC(=O)N1CCN(c2ccc(C(C)=O)cc2)CC1 |  | MIC50 |  | BioA overexpression strain | turbidity |  |  | >50 µM
CO[C@H]1/C=C/O[C@@]2(C)Oc3c(C)c(O)c4c(O)c(c(/C=N/N5CCN(Cc6ccccc6)CC5)c(O)c4c3C2=O)NC(=O)/C(C)=C\C=C\[C@H](C)[C@H](O)[C@@H](C)[C@@H](O)[C@@H](C)[C@H](OC(C)=O)[C@@H]1C |  | MIC |  | RMP-R |  |  |  | 0.75 µg/mL
CCN1CCc2c(sc(NC(=O)c3c(F)c(F)c(F)c(F)c3F)c2C(N)=O)C1 |  | MIC |  | ATCC 35822 INH-R2 isoniazid-resistant | turbidity |  |  | 12 µM
CCCCCCCCCCCCCCCCNC(CCO)[C@@H]1OC2OC(C)(C)OC2C2OC(C)(C)OC21 |  | MIC |  | H37Rv |  |  |  | <25 µg/mL
CC(C)(C)n1nnnc1Cl |  | inhibition |  | H37Rv | BACTEC |  | 12.5 µg/mL | 3%
CC(C)(C)C1CCc2c(sc3nc(SCc4cccnc4)nc(N)c23)C1 |  | MIC |  | H37Rv | MTT / visual reading |  |  | >200 µg/mL
CCCCCCCCCCCCCCCCNC(CCO)C1OC2OC(C)(C)OC2[C@H]1OC |  | MIC |  | H37Ra |  |  |  | 12.5 µg/mL
C[C@]12CC/C(=N/NC(=O)c3ccncc3)C[C@@H]1CC[C@@H]1[C@@H]2CC[C@]2(C)[C@@H](O)CC[C@@H]12 |  | MIC |  | H37Rv | resazurin |  |  | 0.025 µg/mL
CO/C(=N\N=C\c1ccccc1)c1ccncc1 |  | MIC |  | H37Rv |  |  |  | >20 µg/mL
CSc1nc(N)c2c3c(sc2n1)CC(C(C)(C)C)CC3 |  | MIC |  | H37Rv | MTT / visual reading |  |  | 25 µg/mL
COc1ccc(-c2cc(CN3CCOCC3)c(C)n2-c2ccc(C(C)C)cc2)cc1 |  | MIC90 |  | H37Rv |  |  |  | 17.1 µM
CC1NC(C(=O)O)Cc2c1[nH]c1ccccc21 |  | MIC bound |  | H37Rv | BACTEC |  |  | >12.5 µg/mL
CN1Cc2cc(N3CCN(C(=O)c4cccc(Cl)c4)CC3)ccc2C1=O |  | MIC90 |  | BioA underexpression strain | turbidity |  |  | 9.4 µM
Nc1nc2c(c(=O)[nH]1)CN(c1ccc(S(=O)(=O)O)cc1)CN2 |  | inhibition |  | H37Rv | BACTEC |  | 12.5 µg/mL | 0%
S=c1oc2ccc(Br)cc2c(=S)n1-c1ccc(Br)cc1 |  | MIC | 14 d | My 331/88 |  |  |  | 1 µM
CCCCCCCCCCCCNC(CCO)C1OC2OC(C)(C)OC2[C@H]1OC |  | MIC |  | H37Ra |  |  |  | 12.5 µg/mL
CCC1Cn2cc([N+](=O)[O-])nc2O1 |  | MIC |  | H37Rv-14A1 (PA-824-resistant) |  |  |  | 0.8 µM
NC(Cc1c[nH]c2ccccc12)C(=O)NC(Cc1c[nH]c2ccccc12)C(=O)NC(Cc1c[nH]c2ccccc12)C(=O)O | VERO | MIC |  | H37Rv | BACTEC |  |  | 12.5 µg/mL
Cc1ccc2oc(=O)n(-c3cccc(Cl)c3)c(=S)c2c1 |  | MIC | 21 d | My 331/88 |  |  |  | 0.5 µM
Cc1ccc(-c2cc(CN3CCSCC3)c(C)n2-c2ccc(F)cc2)cc1 |  | MIC90 |  | H37Rv |  |  |  | 17.8 µM
CCn1c2ccc([N+](=O)[O-])cc2c2c([N+](=O)[O-])c(NC(C)=O)ccc21 |  | MIC bound |  | H37Rv | BACTEC |  |  | >12.5 µg/mL
C/C(=N\NC(=O)c1ccncc1)c1cccc(Br)c1 |  | MIC |  | 6 PI |  |  |  | >20 µg/mL
Cc1c(N2CC3CCCNC3C2)c(F)cc2c(=O)c(C(=O)O)cn(C3CC3)c12 |  | MIC |  | 41 (RFP-susceptible) |  |  |  | <0.003 µg/mL
CCOC(=O)c1c(NC(=O)c2c(F)c(F)c(F)c(F)c2F)sc2c1CCNC2=O |  | EC90 |  | ATCC 35822 | turbidity |  |  | 1.4 µM
CO[C@H]1/C=C/O[C@@]2(C)Oc3c(C)c(O)c4c(O)c(c5c(c4c3C2=O)NC2(CCN(CC(C)C)CC2)N=5)=NC(=O)/C(C)=C\C=C\[C@H](C)[C@H](O)[C@@H](C)[C@@H](O)[C@@H](C)[C@H](OC(C)=O)[C@@H]1C |  | MIC |  | MDR-22 (MDR) |  |  |  | 1.6 µg/mL
CC1(C)C=Cc2c(ccc(C(=O)/C=C/c3ccc(O)cc3)c2O)O1 |  | MIC |  | MTCS2 | resazurin |  |  | 9.76 µg/mL
CCOC(=O)c1c(N)sc2c1CCN(C(=O)OC(C)(C)C)C2 |  | MIC |  | H37Rv | resazurin |  |  | >100 µg/mL
CCCCCCCCCCCCNC[C@H]1OC2OC(C)(C)OC2C2OC(C)(C)OC21 |  | MIC |  | H37Ra |  |  |  | 12.5 µg/mL
O=[N+]([O-])c1cn2c(n1)OC[C@@H](OCc1ccc(OCc3ccccc3)cc1)C2 |  | MIC |  | H37Rv |  |  |  | 0.1–0.2 µM
Cn1nc(-c2ccccc2)c(C(=O)/C=C/c2ccc(Cl)cc2)c(N2CCCC2)c1=O |  | inhibition |  | H37Rv | BACTEC |  | 12.5 µg/mL | 38%
Cc1ccc(-n2c(=O)oc3ccc(C)cc3c2=S)cc1 |  | MIC | 14 d | My 331/88 |  |  |  | 0.5 µM
O=C1NC(NNC(=O)c2ccncc2)=N/C1=C\c1ccc(Cl)cc1 |  | MBC |  | H37Rv |  |  |  | >100 µg/mL
COc1cc(OC)c(C2SCC(=O)N2c2nnc(C(F)(F)F)s2)cc1OC |  | inhibition |  | H37Rv | BACTEC |  | 12.5 µg/mL | -4%
CC1=C(C(=O)Nc2ccc([N+](=O)[O-])cc2)C(c2cccc(Br)c2)C(C(=O)Nc2ccc([N+](=O)[O-])cc2)=C(C)N1 |  | MIC |  | H37Rv |  |  |  | >6.25 µg/mL
N#Cc1c(NC(=O)c2c(F)c(F)c(F)c(F)c2F)sc2c1CCOC2 |  | MIC |  | ATCC35838 | turbidity |  |  | 3.4 µM
CC1=C(C(=O)Nc2cccc(Cl)c2)C(c2ccccc2)C(C(=O)Nc2cccc(Cl)c2)=C(C)N1 |  | MIC |  | H37Rv |  |  |  | >12.5 µg/mL
COc1ccc2oc(=O)n(-c3ccc(C(F)(F)F)cc3)c(=S)c2c1 |  | MIC | 14 d | My 331/88 |  |  |  | 32 µM
Cc1cc(NCC(O)C(O)C(O)CO)c(C(=O)NN)cc1C |  | MIC bound |  | H37Rv | BACTEC |  |  | >12.5 µg/mL
Cc1cc(-c2cc3c(cc2F)c(=O)c(C(=O)O)cn3C2CC2)cc(C)n1 |  | MIC |  | H37Rv |  |  |  | 4 µg/mL
O=C(CNC(=O)Nc1n[nH]c(=S)s1)NNC(=S)Nc1ccccc1 |  | MIC bound |  | H37Rv | BACTEC |  |  | >12.5 µg/mL
CCNC(=O)c1c(NC(=O)c2c(F)c(F)c(F)c(F)c2F)sc2c1CCN(CC)C2 |  | EC50 |  | H37Rv | turbidity | katG Y155 truncation mutant |  | 5.7 µM
CO[C@H]1/C=C/O[C@@]2(C)Oc3c(C)c(O)c4c(O)c(c(/C=N/N5CCN(C)CC5)c(O)c4c3C2=O)NC(=O)/C(C)=C\C=C\[C@H](C)[C@H](O)[C@@H](C)[C@@H](O)[C@@H](C)[C@H](OC(C)=O)[C@@H]1C |  | MIC |  | TN994 |  |  |  | 16 µg/mL
Cn1nnnc1-c1ccc(N2CCN(C(=O)c3cccc(Cl)c3)CC2)cc1 |  | MIC50 |  | BioA overexpression strain | turbidity |  |  | >50 µM
O=[N+]([O-])c1ccc(C2=CSC3=NCCN23)cc1 |  | inhibition |  | H37Rv | resazurin |  | 6.25 µg/mL | -5%
CCCc1ccc(-c2cc(CN3CCOCC3)c(C)n2-c2ccc(Cl)cc2)cc1 |  | MIC90 |  | H37Rv |  |  |  | 31.66 µM
COc1c(N2CC[C@@H](C(C)(C)N)C2)c(F)cc2c(=O)c3c(=O)[nH]sc3n(C3CC3)c12 |  | MIC |  | Pan-susceptible clinical isolate 7 |  |  |  | 0.06 µg/mL
O=C1NC(=Nc2ccc(Cl)cc2Cl)N/C1=C\c1ccc(Cl)cc1Cl | VERO | EC50 |  | H37Rv |  |  |  | <12.5 µg/mL
CC1=C(C(=O)Nc2ccccc2Cl)C(c2ccccc2O)C(C(=O)Nc2ccccc2Cl)=C(C)N1 |  | MIC |  | H37Rv |  |  |  | >12.5 µg/mL
CN(C)CCc1c2c(nc3ccccc13)C(=O)c1cccnc1C2=O |  | MIC bound |  | H37Rv | resazurin |  |  | <6.25 µg/mL
CC1(C)S[C@@H]2[C@H](NC(=O)[C@H](N)c3ccccc3)C(=O)N2[C@H]1C(=O)O |  | MIC |  | TMC 303 |  |  |  | 92 µM
CO[C@@H]1C(C(CCO)NC2CC2)OC2OC(C)(C)OC21 |  | MIC |  | H37Ra |  |  |  | 50 µg/mL
O=C1NC(NNC(=O)c2ccncc2)=N/C1=C\c1ccccc1Cl |  | MIC |  | ATCC 35838 (rifampin-resistant) |  |  |  | ≤1.56 µg/mL
CO[C@@]12[C@H](COC(=O)NCCO)C3=C(C(=O)C(C)=C(N)C3=O)N1C[C@H]1[C@@H]2N1C |  | MIC |  | PAS-R |  |  |  | 3.1 µg/mL
NNC(=O)c1ccncc1 |  | MIC |  | S-24M (susceptible) |  |  |  | 0.025 µg/mL